Pooled drug test results. Numbers come from NIAID ChemDB, via PubChem.

Common to all: tests in culture; agent: Mycobacterium avium; endpoint: MIC

Blank or dashed fields: not listed here. Neighbouring rows are from separate reports.

compound,strain or isolate,value
CCCCCCCCCCCCCCCCCCCCCCC(=O)NC(C)(CCC(=O)O)CCC(=O)O,VA14,144 µg/mL
CCCCCCCOc1ccccc1NC(=O)OCC[NH+]1CCCC1,MY330/88,16 µM
CCCCCCCN(CCCCCCC)C(=O)NC(CCC(=O)O)(CCC(=O)O)CCC(=O)O,VA14,27 µg/mL
Clc1ccc(/C(Cn2ccnc2)=N/OCc2ccc(-c3ccccc3)cc2)c(Cl)c1,103317,18.3 µM
N/C(=N\N=C\c1cc2ccccc2s1)c1ccccn1,,>16 µg/mL
CC(C)(C)c1cc(C(C)(C)C)c2oc(C(N)=O)nc2c1,MY330/88,250 µM
C[C@@H]1CN(c2c(F)c(N)c3c(=O)c(C(=O)O)cn(C4CC4)c3c2F)C[C@H](C)N1,101,4 µg/mL
CCCCCOc1ccccc1NC(=O)OCC[NH+]1CCCC1,MY330/88,62.5 µM
CC(C)N=c1cc2n(-c3ccc(Cl)cc3)c3ccccc3nc-2cc1Nc1ccc(Cl)cc1,24657,6.7 µg/mL
Clc1ccc(CNc2ccc(-n3ccnc3)cc2)cc1,103317,13.4 µM
CC[C@H]1OC(=O)[C@H](C)C(=O)[C@H](C)[C@@H](O[C@@H]2O[C@H](C)C[C@H](N(C)C)[C@H]2O)[C@](C)(OC)C[C@@H](C)C(=O)[C@H](C)[C@H]2N(CCCCn3cnc(-c4cccnc4)c3)C(=O)O[C@]12C,Isolate 711,2.5 µg/mL
CC(=O)NC[C@H]1CN(c2ccc(N3CCN(c4ccc([N+](=O)[O-])s4)CC3)c(F)c2)C(=O)O1,ATCC700897,<0.125 µg/mL
CCOc1ccccc1NC(=O)OCCN(C)C,MY330/88,500 µM
CC(C)(C)c1cc(C(C)(C)C)c2nc(C(=O)NCC(=O)O)oc2c1,MY330/88,1000 µM
C(=C\c1ccccc1)/CCNc1ccccc1N1CCSCC1,103317,>16 µg/mL
CC(C)(C)n1cc(C(=O)O)c(=O)c2cc(F)c(N3CCNCC3)nc21,RG4,0.5 µg/mL
O=C(Nc1ccccc1N1CCSCC1)c1ccc(-c2ccccc2)cc1,103317,>16 µg/mL
CCCCCCCOc1cccc(NC(=O)OCC[NH+]2CCCC2)c1,MY330/88,16 µM
CC(C)(C)c1cc(C(C)(C)C)c2oc(Cc3ccc(O)cc3)nc2c1,MY330/88,500 µM
C(=C\c1ccccc1)/CNC(Cn1ccnc1)c1ccccc1,103317,52.7 µM
Cc1ccc2oc(/C=N/N=C(\N)c3cnccn3)nc2c1,,>16 µg/mL
NNC(=O)c1ccncc1,103317,32 µg/mL
N/C(=N\N=C\c1cc2ccccc2o1)c1cnccn1,,>16 µg/mL
CN1CCN(c2ccc(NCc3ccc(Cl)cc3)cc2)CC1,103317,>16 µg/mL
Clc1ccc(C(Cn2ccnc2)OCc2ccc(-c3ccccc3)cc2)c(Cl)c1,103317,9.47 µM
CCCCCCCCOc1ccccc1NC(=O)OCC[NH+]1CCCC1,MY330/88,16 µM
Clc1ccc(C(Cn2ccnc2)OC/C=C/c2ccccc2)cc1,103317,23.7 µM
c1ccc(-c2ccc(CNc3cccc(-n4ccnc4)c3)cc2)cc1,103317,1 µg/mL
CO[C@H]1/C=C/O[C@@]2(C)Oc3c(C)c(O)c4c(O)c(cc(O)c4c3C2=O)NC(=O)/C(C)=C\C=C\[C@H](C)[C@H](O)[C@@H](C)[C@@H](O)[C@@H](C)[C@H](OC(C)=O)[C@@H]1C,Rhode Island,1 µg/mL
CCCCCCCCCN(CCCCCCCCC)C(=O)NC(CCC(=O)O)(CCC(=O)O)CCC(=O)O,VA14,18 µg/mL
CCOc1c(N2CCC(C(C)(C)N)C2)c(F)cc2c(=O)c(C(=O)O)cn(C3CC3)c12,RG1,0.25 µg/mL
Fc1ccc(/C(Cn2ccnc2)=N\OCc2ccc(-c3ccccc3)cc2)cc1,103317,20.7 µM
CCCCCCCCCCCCC(CCCCCCCCCCCC)NC(=O)NC(CCC(=O)O)(CCC(=O)O)CCC(=O)O,VA14,144 µg/mL
N/C(=N\N=C\c1cc2ccccc2o1)c1ccccn1,,>16 µg/mL
CCCCCOc1ccccc1NC(=O)OCC[NH+]1CCCC1,MY330/88,62.5 µM
CN1CCN(c2cccc(NCc3ccc(-c4ccccc4)cc3)c2)CC1,103317,21.6 µM
CCCCCCCCOc1cccc(NC(=O)OCC[NH+]2CCCC2)c1,MY330/88,16 µM
Clc1ccc(CNc2cccc(-n3ccnc3)c2)cc1,103317,4 µg/mL
CCCCCCCCCCOc1ccccc1NC(=O)OCCN1CCOCC1,MY330/88,32 µM
CCCCOc1ccccc1NC(=O)OCC[NH+]1CCCC1,MY330/88,250 µM
CCCCCCCCCCCN(CCCCCCCCCCC)C(=O)NC(CCC(=O)O)(CCC(=O)O)CCC(=O)O,VA14,54 µg/mL
N/C(=N\N=C\c1nc2ccc([N+](=O)[O-])cc2o1)c1cnccn1,,>16 µg/mL